Anti-infective test results gathered from many reports (values: NIAID ChemDB through PubChem).

Common to all: whole-cell or culture tests; species: Candida albicans; endpoint: MIC

Conditions beyond the fields shown may differ between rows.

| SMILES | strain | method | result |
|---|---|---|---|
| Cn1c(=O)c(-c2[nH][nH]c(=O)c2N=Nc2cccc(Br)c2)c(O)c2ccccc21 | ATCC 10231 |  | 50 µg/mL |
| CC(C)CCC[C@@H](C)[C@H]1CC[C@H]2C3/C(=N/N)C=C4C[C@@H](O)CC[C@]4(C)C3CC[C@]12C | CIP 1180-79 |  | 25 µg/mL |
| Cc1cc(=O)n(-c2ccc(N=Nc3c(-c4c(O)c5ccccc5n(C)c4=O)[nH][nH]c3=O)cc2)n1C | ATCC 10231 |  | >100 µg/mL |
| Cc1nnsc1-c1n[nH]c(=S)n1-c1ccc2ccccc2c1 | ATCC 14053 |  | 25 µg/mL |
| Cn1c(=O)c(-c2[nH][nH]c(=O)c2C=Nc2ccccc2)c(O)c2ccccc21 | ATCC 10231 |  | >100 µg/mL |
| Clc1ccc(/C(Cn2ccnc2)=N\OCc2ccccc2)cc1 | CDCB385 |  | 4 µg/mL |
| CN1C(=O)/C(=c2/[nH][nH]c(=O)/c2=C\c2ccc(Cl)cc2)C(=O)c2ccccc21 | ATCC 10231 |  | >100 µg/mL |
| Fc1ccc(/C(Cn2ccnc2)=N/OCc2ccccc2)cc1 | 5M |  | 128 µg/mL |
| Nn1c(C23CC4CC(CC(C4)C2)C3)n[nH]c1=S | CNCM 1180-79 |  | >300 µg/mL |
| CC1=CC[C@@H]2[C@H](C1)C2(C)C | ATCC 10231 |  | 0.32–0.64 µg/mL |
| CCCSc1cc(C(N)=S)ccn1 | 176 |  | 100 µg/mL |
| O=C(CN1CCCCC1)N/N=C\C(=O)c1ccc(-c2ccccc2)cc1 |  |  | >50 µg/mL |
| Clc1cccc(Cl)c1CO/N=C1/c2ccccc2OCC1n1cncn1 | ATCC 10231 |  | >64 µg/mL |
| CCCCCOc1ccc(-c2ccc(-c3ccc(CN[C@H]4CCCNC(=O)C5C[C@H](N)CN5C(=O)C(C(C)O)NC(=O)C(CCc5ccc(O)cc5)NC(=O)C5C[C@@H](O)CN5C(=O)C(C(C)O)NC4=O)cc3)cc2)cc1 | ATCC CCH442 |  | 0.2 µg/mL |
| O/N=C\c1cccs1 |  |  | 5900 µM |
| O=C(CN1CCOCC1)N/N=C\C(=O)c1ccc(-c2ccccc2)cc1 |  |  | >50 µg/mL |
| O/N=C\c1ccccc1Cl |  |  | 710 µM |
| Clc1ccc(/C(Cn2ccnc2)=N/OCc2ccccc2)c(Cl)c1 | CDCB385 |  | 4 µg/mL |
| Brc1ccc(CO/N=C2\c3ccccc3OCC2n2cncn2)cc1 | ATCC 10231 |  | 8 µg/mL |
| C[C@@H](c1ncncc1F)[C@](O)(Cn1cncn1)c1ccc(F)cc1F | W1016 | broth dilution | 4 µg/mL |
| O=C(NNC(=S)Nc1ccc(Cl)cc1Cl)C12CC3CC(CC(C3)C1)C2 | CNCM 1180-79 |  | >300 µg/mL |
| Cc1nc(C)c(C2=NNC(SCc3ccc(C(F)(F)F)cc3)N2C2C3CC4CC(C3)CC2C4)s1 | ATCC 14053 |  | 25 µg/mL |
| Nn1c(-c2cnccn2)n[nH]c1=S | CNCM 1180-79 |  | >300 µg/mL |
| Fc1ccc(CO/N=C2\c3ccccc3OCC2n2cncn2)cc1 | ATCC 10231 |  | 64 µg/mL |
| CCCCCOc1ccc(-c2ccc(-c3ccc(C(=O)N[C@H]4CCCNC(=O)[C@@H]5C[C@H](NC)CN5C(=O)[C@H]([C@@H](C)O)NC(=O)[C@H](CCc5ccc(O)cc5)NC(=O)[C@@H]5C[C@@H](O)CN5C(=O)[C@H]([C@@H](C)O)NC4=O)cc3)cc2)cc1 | ATCC 62376 |  | 0.2 µg/mL |
| CCOC(=O)c1sc2cc(-c3cccc([N+](=O)[O-])c3)oc(=O)c2c1N | SKF |  | >100 µg/mL |
| CCC[CH2][Sn+3].O=[N+]([O-])c1ccccc1N=C([S-])N/N=C(\c1ccccc1)c1ccccn1 | ATCC 18804 | broth dilution | 6.42 µM |
| Clc1ccc(CO/N=C2/c3ccccc3OCC2n2cncn2)c(Cl)c1 | ATCC 10231 |  | 16 µg/mL |
| Cc1ccc(S(=O)(=O)N/N=C2/C=C3C[C@@H](O)CC[C@]3(C)C3CC[C@]4(C)[C@@H]([C@H](C)CCCC(C)C)CC[C@H]4C23)cc1 | CIP 1663-86 |  | 1.5 µg/mL |
| Nc1scc2c1c(=O)oc1ccccc12 | ATCC 2091 | broth dilution | 128 µg/mL |
| CCCCCOc1ccc(-c2ccc(-c3ccc(C(=O)N[C@H]4CCCNC(=O)C5C[C@@H](O)N5C(=O)C(C(C)O)NC(=O)C(CCc5ccc(O)cc5)NC(=O)C5C[C@@H](O)CN5C(=O)C(C(C)O)NC4=O)cc3)cc2)cc1 | ATCC 10231 |  | 0.78 µg/mL |
| CCCCCCCCCOCn1c[n+](CNC(=O)c2cccnc2)c2ccccc21 | ATCC 10231 |  | 562 µM |
| O=C(CN1CCOCC1)N/N=C\C(=O)c1ccc(Sc2ccccc2)cc1 |  |  | >50 µg/mL |
| CCCCCCCCCCCCCSc1cc(C(N)=S)ccn1 | 3a |  | 100 µg/mL |
| Cc1cc(=O)n(-c2ccc(N=Cc3c(-c4c(O)c5ccccc5n(C)c4=O)[nH][nH]c3=O)cc2)n1C | ATCC 10231 |  | >100 µg/mL |
| Clc1ccc(CO/N=C2/c3ccc(Cl)cc3OCC2n2cnnc2)cc1 | ATCC 10231 |  | 16 µg/mL |
| Cc1ccc(S(=O)(=O)N/N=C2/CC3C/C(=N/NS(=O)(=O)c4ccc(C)cc4)CC[C@]3(C)C3CC[C@]4(C)[C@@H]([C@H](C)CCCC(C)C)CC[C@H]4C23)cc1 | CIP 1180-79 |  | >50 µg/mL |
| O/N=C/c1ccc(O)cc1 |  |  | >7290 µM |
| CCCCCCCCCCOCn1c[n+](CNC(=O)c2cccnc2)c2ccccc21 | ATCC 10231 |  | 1091 µM |
| Cc1ccc(-c2c(CN)c(=O)n3[nH]c(-c4ccc(Br)cc4)nc3c2CN)o1 |  |  | 0.78 µg/mL |
| O/N=C\c1ccc(F)cc1 |  |  | 7200 µM |
| Cc1ccc(/C=c2/sc3n(c2=O)C(N)=C(CN)C(c2ccc(C)o2)C=3CN)o1 |  |  | 100 µg/mL |
| CSc1cc(-c2ccc(C)cc2)c(C(=O)O)s1 | SKF |  | >100 µg/mL |
| COc1ccc2c(Cc3ccc(C(C)(C)C)cc3)c3[n+](cc2c1OC)CCc1cc2c(cc1-3)OCO2 | ATCC64550 |  | 6.25 µg/mL |
| CCCCOCn1c[n+](CNC(=O)c2cccnc2)c2ccccc21 | ATCC 10231 |  | 1335 µM |
| Cc1ccc(S(=O)(=O)N/N=C2\CC[C@@]3(C)C(=C/C(=N/NS(=O)(=O)c4ccc(C)cc4)C4C3CC[C@]3(C)[C@@H]([C@H](C)CCCC(C)C)CC[C@@H]43)C2)cc1 | CIP 1663-86 |  | 25 µg/mL |
| O=C(CN1CCCC1)N/N=C\C(=O)c1ccccc1 |  |  | >50 µg/mL |
| Cn1c(=O)c(-c2[nH][nH]c(=O)c2N=Nc2cccc(Cl)c2)c(O)c2ccccc21 | ATCC 10231 |  | >100 µg/mL |
| Clc1ccc(CO/N=C2/c3ccc(Cl)cc3OCC2n2cncn2)c(Cl)c1 | ATCC 10231 |  | 4 µg/mL |
| CCCCCOc1ccc(-c2ccc(-c3ccc(C(=O)N[C@H]4CCCNC(=O)C5C[C@H](NC(=O)CC)CN5C(=O)C(C(C)O)NC(=O)C(CCc5ccc(O)cc5)NC(=O)C5C[C@@H](O)CN5C(=O)C(C(C)O)NC4=O)cc3)cc2)cc1 | ATCC 10231 |  | 0.39 µg/mL |
| CCCCCCOC[n+]1cccc(NCn2nnc3ccccc32)c1 | ATCC 10231 |  | >1332 µM |
| CCOC(=O)c1sc2cc(-c3cc(F)c(Cl)cc3Cl)oc(=O)c2c1N | SKF |  | >100 µg/mL |
| CSc1cc(C(N)=S)ccn1 | 176 |  | 200 µg/mL |
| CN1C(=O)/C(=c2/[nH][nH]c(=O)/c2=C\c2ccc3c(c2)OCO3)C(=O)c2ccccc21 | ATCC 10231 |  | 50 µg/mL |
| CCOC(=O)N/N=C1/C=C2C[C@@H](O)CC[C@]2(C)C2CC[C@]3(C)[C@@H]([C@H](C)CCCC(C)C)CC[C@H]3C12 | CIP 1180-79 |  | 12.5 µg/mL |
| CCCCCCSc1cc(C(N)=S)ccn1 | 42 |  | 25 µg/mL |
| CCOC(=O)c1sc2cc(-c3ccc(Br)cc3)oc(=O)c2c1N | SKF |  | >100 µg/mL |
| Cn1c(=O)c(-c2[nH][nH]c(=O)c2N=Nc2ccc(Br)cc2)c(O)c2ccccc21 | ATCC 10231 |  | >100 µg/mL |
| CCCCCCCCCCCCCCCC(=O)N[C@H]1CCCNC(=O)C2C[C@H](N)CN2C(=O)C(C(C)O)NC(=O)C(CCc2ccc(O)cc2)NC(=O)C2C[C@@H](O)CN2C(=O)C(C(C)O)NC1=O | ATCC 10231 |  | 0.78 µg/mL |
| Clc1ccc(CO/N=C2\c3ccccc3OCC2n2cncn2)cc1Cl | ATCC 10231 |  | 16 µg/mL |
| CCCCCCCCOc1ccc(N2CCN(c3ccc(C(=O)N[C@H]4CCCNC(=O)C5C[C@H](N)CN5C(=O)C(C(C)O)NC(=O)C(c5ccc(CO)cc5)NC(=O)C5CCCN5C(=O)C(C(C)O)NC4=O)cc3)CC2)cc1 | ATCC 62376 |  | 12.5 µg/mL |
| C/C(=N\NC([S-])=Nc1ccccc1[N+](=O)[O-])c1ccccn1.CCC[CH2][Sn+3] | ATCC 18804 | broth dilution | 7.13 µM |
| Fc1cccc(CO/N=C2/c3ccccc3OCC2n2cncn2)c1 | ATCC 10231 |  | 32 µg/mL |
| Cc1ccc(S(=O)(=O)N/N=C2C=C3/C(=N/NS(=O)(=O)c4ccc(C)cc4)CC4C(CC[C@]5(C)[C@@H]([C@H](C)CCCC(C)C)CC[C@@H]45)[C@@]3(C)CC/2)cc1 | CIP 1180-79 |  | >50 µg/mL |
| Clc1ccc(/C(Cn2ccnc2)=N/OCc2ccccc2)cc1 | CA12 |  | >128 µg/mL |
| CCCCCCCOC[n+]1cccc(NCn2cnc3ccccc32)c1 | ATCC 10231 |  | 2574 µM |
| CCCCN1C(c2sc(C)nc2C)=NNC1SC | ATCC 14053 |  | 12.5 µg/mL |
| CCC[CH2][Sn+3].Fc1ccccc1N=C([S-])N/N=C(\c1ccccc1)c1ccccn1 | ATCC 18804 | broth dilution | 26.84 µM |
| COc1ccc(/C=N/O)cc1 |  |  | >6620 µM |
| Fc1cccc(CO/N=C2\c3ccccc3OCC2n2cncn2)c1 | ATCC 10231 |  | 64 µg/mL |
| COc1ccc(CS(=O)(=O)C2NN=C(c3sc(C)nc3C)N2C2C3CC4CC(C3)CC2C4)cc1 | ATCC 14053 |  | 25 µg/mL |

A second listing of 7 rows from above:

| SMILES | strain | method | result |
|---|---|---|---|
| Fc1ccc(/C(Cn2ccnc2)=N/OCc2ccccc2)cc1 | 5M |  | 128 µg/mL |
| Cc1ccc(/C=c2/sc3n(c2=O)C(N)=C(CN)C(c2ccc(C)o2)C=3CN)o1 |  |  | 100 µg/mL |
| CCOC(=O)c1sc2cc(-c3ccc(Br)cc3)oc(=O)c2c1N | SKF |  | >100 µg/mL |
| O/N=C/c1ccc(O)cc1 |  |  | >7290 µM |
| CCOC(=O)N/N=C1/C=C2C[C@@H](O)CC[C@]2(C)C2CC[C@]3(C)[C@@H]([C@H](C)CCCC(C)C)CC[C@H]3C12 | CIP 1180-79 |  | 12.5 µg/mL |
| Cc1cc(=O)n(-c2ccc(N=Cc3c(-c4c(O)c5ccccc5n(C)c4=O)[nH][nH]c3=O)cc2)n1C | ATCC 10231 |  | >100 µg/mL |
| Clc1ccc(/C(Cn2ccnc2)=N\OCc2ccccc2)cc1 | CDCB385 |  | 4 µg/mL |

An empty or dashed field is not shown. Two numbers with a dash give a range or band.